Two molecules from US20130164308A1, “Staphylococcus aureus specific antibodies and uses thereof” (RINAT NEUROSCIENCE, published 2013) can be followed below.

For this test, the target named is S. aureus alpha-toxin (purified, Calbiochem cat. no. 616385) (Staphylococcus aureus, UniProt P09616 27-319). Description: cell-based or functional assay.

Residue numbers refer to the chain shown, from its start. Names may count otherwise.

B1: DF1.1 variant HCDR3-E5A (antibody, V domains shown)
VH: QVQLVQSGAEVKKPGSSVKVSCKTSGGTFNNVAINWVRQAPGQGLEWMGGIIPGLDTPNYAQKFQGRVTITADKSTTSTYLELSSLRSDDTAVYYCAREMAVSGRWRPTEAFEIWGQGTMVTVSS
VL: ETTLTQSPGTLSLSPGERATLSCRASQTISNNFVAWYQQKPGQAPRLLIYGASTRATGIPDRFSGSGSGTDFTLTISSLEPEDFAVYYCQQYGSSPYTFGQGTKVDIK
Consider B1, for which the “REL* EC50 (rabbit erythrocyte lysis, 2 nM alpha-toxin)” value is 0.3 nM.

B2: DF1.1 variant HCDR3-G8R (antibody, V domains shown)
VH: B1 VH with A101E, G104R
VL: B1 VL
For the molecule B2, the “REL* EC50 (rabbit erythrocyte lysis, 2 nM alpha-toxin)” value was 0.25 nM.
